Values from PubChem BioAssay AID504761 (Drosophila RNAi Screening Center, 2011).
The deposit covers about 22,000 reagents; shown is an unselected part of those that have a named target and a result. Of all reagents, 116 (0.52%) got an active call. 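Calls depend on retest data that are not deposited; infection was ranked per plate without normalising between plates; the unit of the infection score is not given.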 Raw values are not corrected between plates. A number with no mark means an inactive call. Reagents against one gene are numbered here. Names joined by + are all predicted targets of the reagent. Not stated in the record: the amount of reagent, the time to read-out.

- Screen: 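Fly genes whose silencing reduces dengue virus type 2 infection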 (primary screen)
- Cell system: D.Mel-2 cells from Drosophila
- Reagents: long dsRNA against Drosophila genes
- Challenge: infection with dengue virus type 2; dose and infection time not stated
- Detection: 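Cells stained for dengue envelope protein and imaged; percent of infected cells per well on duplicate plates, ranked by infection, with stained nuclei counted for cell number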
- Direction: infection score: higher = more virus-infected cells; cell count: higher = more cells in the well
- Rule for the call: 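Very low infection ranking in both replicate wells (chance probability at most 0.065), then a retest showing infection dropped 1.5-fold or more at p below 0.05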
- Calls: active = confirmed: knock-down lowers infection; inactive = not picked or not confirmed

Target gene	dsRNA no.	infection score, replicate 1	infection score, replicate 2	cell count, replicate 1	cell count, replicate 2
Pka-C2 (Protein kinase, cAMP-dependent, catalytic subunit 2)	1	2.38	3.28	4235	3991
Pka-C2 (Protein kinase, cAMP-dependent, catalytic subunit 2)	2	2.53	3.97	6692	7181
Pka-C2 (Protein kinase, cAMP-dependent, catalytic subunit 2)	3	9.76	20	5828	5339
CG15330	1	2.38	1.56	6390	6855
CG6830	1	24.4	28	6271	4670
CG6830	2	21	21	6432	6361
px (plexus)	1	1.14	21.4	6574	4890
px (plexus)	2	1.77	1.75	6485	6274
CG31224	1	9.51	0.78	7014	7548
CG31224	2	1.33	2.34	6776	7138
Spc105R (Spc105-related)	1	14.1	7.65	3297	3923
Obp56h (Odorant-binding protein 56h)	1	0.77 (active)	0.27	5942	6222
Obp56h (Odorant-binding protein 56h)	2	5.57	1.2	6253	6089
Pdha (Pyruvate dehydrogenase E1 alpha subunit)	1	13.2	4.59	5455	5643
Pdha (Pyruvate dehydrogenase E1 alpha subunit)	2	2.28	24.1	6581	5535
AP-2sigma (Adaptor Protein complex 2, sigma subunit)	1	2.88	0.26	555	381
CG15042	1	16.4	1.7	3217	6533
Mgtor (Megator)	1	13.5	12	2970	5410
AstA-R2 (Allatostatin A receptor 2)	1	2.12	4.85	6091	6295
AstA-R2 (Allatostatin A receptor 2)	2	6.08	1.97	6558	6292
CG32750	1	0.93	1.77	6154	5987
poe (purity of essence)	1	2.64	27.4	6179	5587
poe (purity of essence)	2	29.4	14.9	3698	2235
CG6576	1	0.85	0.99	6142	6445
CG6576	2	20.5	3.38	5808	6884
betaNACtes6 + betaNACtes3	1	17.3	16.6	5609	6775
sca (scabrous)	1	8.41	6.15	6922	6444
sca (scabrous)	2	20.6	4.26	4016	1196
CG13912	1	3.3	2.67	6117	6063
CG14377 + CG14374	1	1.33	1.16	6462	6388
COX6B (Cytochrome c oxidase subunit 6B)	1	1.87	1.93	5679	5691
COX6B (Cytochrome c oxidase subunit 6B)	2	9.34	9.49	5912	5445
RhoGAP16F (Rho GTPase activating protein at 16F)	1	1.4	0.92	7052	6662
AspRS (Aspartyl-tRNA synthetase)	1	4.35	10.6	6119	6121

Ordered by “infection score, replicate 2” (high to low): 4 of the entries above.
Target gene	dsRNA no.	infection score, replicate 1	infection score, replicate 2	cell count, replicate 1	cell count, replicate 2
Mgtor (Megator)	1	13.5	12	2970	5410
AstA-R2 (Allatostatin A receptor 2)	1	2.12	4.85	6091	6295
AstA-R2 (Allatostatin A receptor 2)	2	6.08	1.97	6558	6292
CG32750	1	0.93	1.77	6154	5987

The results go on.
Target gene	dsRNA no.	infection score, replicate 1	infection score, replicate 2	cell count, replicate 1	cell count, replicate 2
CG6191	1	1.24	5.21	6526	6779
CG5721	1	5.07	5.01	6336	6413
nAChRalpha7 (nicotinic Acetylcholine Receptor alpha7)	1	11.9	4.27	5710	6071
nAChRalpha7 (nicotinic Acetylcholine Receptor alpha7)	2	5.36	3.8	5425	6074
CG15449	1	10.1	3.34	5764	5365
JMJD7 (Jumonji domain containing 7)	1	9.71	2.58	6847	6693
CG17242	1	2.52	1.93	6346	6428
CG2267	1	2.68	12.7	1008	3616
CG31415	1	0.66	1.28	6032	6865
CG7794	1	8.97	4.94	6920	6502
Vajk1	1	4.87	9.24	5970	4880
Vajk1	2	5.71	1.88	5970	6004
mthl10 (methuselah-like 10)	1	1.63	2.83	6127	6194
mthl10 (methuselah-like 10)	2	3.71	1.9	6195	5941
CG8192	1	15.1	21.4	6390	5990
Flo2 (Flotillin 2)	1	0.45	0.47	6449	6782
Flo2 (Flotillin 2)	2	5.94	6.16	6588	6705
Ogdh (Oxoglutarate dehydrogenase)	1	2.57	9.59	6966	6599
Ogdh (Oxoglutarate dehydrogenase)	2	5.26	3.53	6257	6115
NdufV3 (NADH:ubiquinone oxidoreductase subunit V3)	1	0.22	8.36	445	5334
NdufV3 (NADH:ubiquinone oxidoreductase subunit V3)	2	6.95	4.92	6890	6569
CG12391	1	10.7	3.05	5613	6323
CG16904	1	15.2	26.7	6029	5692
CG16904	2	2.59	6.8	5860	6235
